Measured values from several laboratories, pooled; numbers as filed in NIAID ChemDB.

Shared fields: tests in culture; organism: Cryptococcus neoformans; endpoint: MFC

Rows are shuffled and stem from different studies. An empty or dashed field is not shown.

| compound | strain or isolate | method | result |
|---|---|---|---|
| N=C(N)c1ccc(OCCCC(O)COc2ccc(C(=N)N)cc2)cc1 | 114.96 |  | 3.12 µg/mL |
| C[C@@H](n1ncn(-c2ccc(OCC(F)(F)C(F)F)cc2)c1=O)[C@](O)(Cn1cncn1)c1ccc(F)cc1F | DUMC 114.95 |  | 1 µg/mL |
| Cc1cc(-c2cc(C)n(CCO)n2)no1 |  |  | >200 µM |
| N=C(N)c1ccc(NCCCNc2ccc(C(=N)N)cc2[N+](=O)[O-])c([N+](=O)[O-])c1 | 114.95 |  | 12.5 µg/mL |
| CN[C@H]1CC[C@@H](c2ccc(Cl)c(Cl)c2)c2ccccc21 | C23 | broth dilution | 8 µg/mL |
| C[C@@H](n1cnc2cc(Cl)ccc2c1=O)[C@](O)(Cn1cncn1)c1ccc(F)cc1F | Isolate 114.96 |  | 20 µg/mL |
| CCn1nc(C)c(N)c1-c1cc(C)on1 |  |  | >200 µM |
| COC1CC2CCC(C)C(O)(O2)C(=O)C(=O)N2CCCCC2C(=O)OC(C(C)CC2CCC(O)C(OC)C2)CC(=O)C(C)/C=C(\C)[C@@](O)(c2ccc(C)s2)C(OC)C(=O)C(C)CC(C)/C=C/C=C/C=C/1C | WILD TYPE |  | >100 µg/mL |
| Cc1cc(-c2cc(C)on2)n(C)n1 |  |  | >200 µM |
| CC(C)N=C(N)c1ccc2nc(-c3ccc(CCc4ccc(-c5nc6ccc(C(N)=NC(C)C)cc6[nH]5)cc4)cc3)[nH]c2c1 | 119.95 |  | 0.39 µg/mL |
| Cc1cc(-c2c(N=O)c(C)nn2C)no1 |  |  | 1.6 µM |
| NCCNC(=O)C1=Nc2ccc(NC(=O)C3=Nc4ccc(C(=O)Nc5ccc6[nH]c(C(=O)NCCN)cc6c5)cc4C3)cc2C1 | Serotype C |  | 2 µg/mL |
| Cn1nc(Cc2ccc(Cl)cc2)c2ccccc2c1=O | Clinical isolate (IM 972751) | broth dilution | 250 µg/mL |
| COC1CC2CCC(C)C(O)(O2)C(=O)C(=O)N2CCCCC2C(=O)OC(C(C)CC2CCC(O)C(OC)C2)CC(=O)C(C)/C=C(\C)C(O)C(OC)C(=O)C(C)C[C@](C)(N(O)C(=O)NN2CCCCC2)/C=C/C=C/C=C/1C | TOR1-1 |  | >100 µg/mL |

A second listing of 2 rows from above:

compound	strain or isolate	method	result
N=C(N)c1ccc(NCCCNc2ccc(C(=N)N)cc2[N+](=O)[O-])c([N+](=O)[O-])c1	114.95		12.5 µg/mL
CCn1nc(C)c(N)c1-c1cc(C)on1			>200 µM